Compound potency records, mixed from different reports. Data source: NIAID ChemDB in PubChem.

Common to all: whole-cell or culture tests; organism: HIV-1

An empty or dashed field is not shown.

smiles,mutations,cells,endpoint,setting,strain or isolate,method,value
Cc1cn([C@@H]2O[C@H](COCc3ccccc3)C3(OS(=O)(=O)C(Cc4ccccc4)=C3NCc3ccccc3)[C@H]2O[Si](C)(C)C(C)(C)C)c(=O)n(C)c1=O,,CEM,EC50,,IIIB,syncytia,51 µM
[N-]=[N+]=N[C@H]1C[C@H](n2cc(COCC(F)(F)F)c(=O)[nH]c2=O)O[C@@H]1CO,,CEM,EC50,,,p24,1.5 µg/mL
CCN1c2cc(C)c(C)cc2N(C)S(=O)(=O)c2cccnc21,,MT-4,EC50,,IIIB,cytopathic effect,0.2 µM
CSC1N=S(=O)(c2ccccc2)c2ccccc2N1,,MT-2,EC50,,IIIB,cytopathic effect / XTT,6.2 µM
C[C@]1(CCP(=O)(O)O)CO[C@@H](n2cnc3c(N)ncnc32)C1,,PBMC,EC50,,LAI,,22.2 µM
CCCc1cc(=O)oc2c3c(c4c(c12)OC(C)(C)C=C4)O[C@H](C)[C@@H](C)[C@@H]3O,RT-Y188C,CEM + CEM-SS,EC50,,NL4-3,XTT,1.7 µM
Cc1cn([C@H]2C[C@H](N=[N+]=[N-])[C@@H](CO)O2)c(=O)[nH]c1=O,,PBMC,EC50,,8618 CLADE B CLADE B,p24,0.017 µM
CC(C)(C)NC(=O)[C@@H]1CN(Cc2cccnc2)CCN1C[C@@H](O)C[C@@H](Cc1ccccc1)C(=O)N[C@H]1c2ccccc2C[C@H]1O,PR-L10R N37D M46I I62V L63P A71V G73S V77I V82T L90M I93L,PBMC,EC50,,Clinical isolate,p24,0.55 µM
CC(=O)O[C@@H]1[C@@H]2[C@H]([C@H](O)[C@H](OC(C)=O)/C(C)=C/[C@@]34O[C@@]3(C[C@H](C)[C@@H]4O)C(=O)[C@@H]1C)C2(C)C,,MT-4,EC50,,NL4-3,luciferase / luminescence,>44 µM
Cc1cn([C@H]2C[C@H](N=[N+]=[N-])[C@@H](CO)O2)c(=O)[nH]c1=O,RT-K65R L74V M184V Y115F,MT-4,EC50,,XM-ABC-resistant,p24,<0.04 µM
O=C(O)P(=O)(O)O,RT-Q161L H208Y,MT-2,EC50,,LAI viral clone (RT-Q161L H208Y),cytopathic effect / MTT,213 µM
Cc1c(O)c(=O)ccn1C,,PBLC,EC50,,BaL,XTT / p24,<100 µM
O=c1[nH]c(=O)n([C@H]2C[C@H](F)[C@@H](CO)O2)cc1C(OCC(F)(F)F)OCC(F)(F)F,,CEM,EC50,,,p24,15 µg/mL
O=c1[nH]cnc2c1ncn2[C@H]1CC[C@@H](CO)O1,RT-A62V V75I F77C F116Y Q151M,MT-4,EC90,,XM-Q151M,p24,54 µM
Cc1ccnc2c1NC(=O)c1cccnc1N2C1CC1,RT-D67N K70R L100I T215Y K219Q,CEM + CEM-SS,EC50,,NL4-3(RT-4XAZT+L100I),XTT,0.03 µM
Cc1cn([C@@H]2O[C@H](CO[Si](c3ccccc3)(c3ccccc3)C(C)(C)C)C3(OS(=O)(=O)C=C3N)[C@H]2O[Si](C)(C)C(C)(C)C)c(=O)n(C)c1=O,,MT-4,EC50,,IIIB,syncytia,18 µM
CC(C)C[C@H](NC(=O)[C@H](CC(=O)OS(=O)(=O)O)NC(=O)[C@@H](N)Cc1ccc(OS(=O)(=O)O)cc1)C(=O)N[C@@H](CC(=O)OS(=O)(=O)O)C(=O)N[C@@H](Cc1ccc(OS(=O)(=O)O)cc1)C(=O)N[C@@H](Cc1ccc(OS(=O)(=O)O)cc1)C(=O)O.CCN(CC)CC.CCN(CC)CC.CCN(CC)CC.CCN(CC)CC.CCN(CC)CC,,C8166,EC50,,GUN1,syncytia,<200 µg/mL
COc1ccc(S(=O)(=O)N(CC(C)C)C[C@@H](O)[C@H](Cc2ccccc2)NC(=O)O[C@H]2CO[C@H]3OCC[C@H]32)cc1,,PBMC,EC50,,Ba-L Laboratory isolate,p24,0.0003 µM
CCOC(=O)c1ccc(NC(=O)[C@H]2C[C@H](C(C)C)N[C@]23C(=O)Nc2ccc(Br)cc23)cc1,,Primary macrophages,EC50,10% FBS,pNF462,p24 / ELISA,6.8 µM
O=[N+]([O-])c1ccccc1S(=O)(=O)c1ccccc1,,CEM + CEM-SS,EC50,,RF,,1.95–5.3 µM
Cc1c(O)cccc1C(=O)N[C@@H](CSc1ccccc1)[C@H](O)CN1C[C@H]2CCCC[C@H]2C[C@H]1C(=O)NC(C)(C)C,,MT-2,EC50,,LAI Laboratory isolate,cytopathic effect / MTT,0.005 µM
C[C@H](NC(=O)[C@H](CCCN=C(N)N)NC(=O)c1ccc(CNCc2ccccn2)cc1)c1cccc2ccccc12,,PBMC,EC50,,NL4-3 X4 laboratory isolate,p24,0.042 µM
Nc1nc(N)c2ncn([C@H]3CO[C@@H](CO)O3)c2n1,,MT-4,EC50,,IIIB,,0.95 µM
CCCc1cc(=O)oc2c3c(c4c(c12)OC(C)(C)C=C4)O[C@@H](C)[C@H](C)[C@@H]3O,RT-T139I,CEM + CEM-SS,EC50,,Calanolide A-resistant (RT T139I),XTT,4.5 µM
Cc1c(O)cccc1C(=O)N[C@@H](CSc1ccccc1)[C@H](O)CN1C[C@H]2CCCC[C@H]2C[C@H]1C(=O)NC(C)(C)C,,MT-2,EC50,,IIIB,cytopathic effect / MTT,0.0602 µM
Cc1cn([C@@H]2O[C@H](CO[Si](C)(C)C(C)(C)C)C3(OS(=O)(=O)C=C3N)[C@H]2O)c(=O)[nH]c1=O,,MT-4,EC50,,IIIB,syncytia,>40 µM
Cc1c(O)cccc1C(=O)N[C@@H](CSc1ccccc1)[C@H](O)CN1C[C@H]2CCCC[C@H]2C[C@H]1C(=O)NC(C)(C)C,,MT-2,EC50,,RF,,0.005 µM
O=c1[nH]c(=O)n([C@H]2CC(F)(F)[C@@H](CO)O2)cc1COCC(F)(F)F,,CEM,EC50,,,p24,53.3 µg/mL
CCN1c2ncccc2N(C)C(=S)c2sc3cccnc3c21,,MT-4,EC50,,IIIB,cytopathic effect,0.0035 µM
C[C@]1(/C=C/P(=O)(O)O)CO[C@@H](n2cnc3c(=O)[nH]c(N)nc32)C1,,PBMC,EC90,,LAI,,95 µM
C=C1C[C@@]23CC[C@@H]4C(C)(C)[C@H](O)CC[C@@]4(C)[C@@H]2C[C@@H]1[C@@H](O)C3=O,,MT-4,EC50,,NL4-3,luciferase / luminescence,>44 µM
CO[C@H]1[C@@H](O)[C@H](n2ccc(N)nc2=O)[C@@H](O)[C@H](O)[C@@H]1O,,MT-4,EC50,,IIIB,cytopathic effect / MTT,>10 µg/mL
CCOC(=O)c1ccc(NC(=O)[C@@]2(C)C[C@H](C(C)C)N[C@]23C(=O)Nc2ccc(C)cc23)cc1,,Primary macrophages,EC50,10% FBS,pNF462,p24 / ELISA,5.5 µM
CO[C@@H]1[C@@H](O)[C@@H](O)[C@H](O)[C@H](O)[C@H]1n1ccc(N)nc1=O,,MT-4,EC50,,IIIB,cytopathic effect / MTT,>10 µg/mL
CCN1c2ncccc2N(C)C(=S)c2oc3cccnc3c21,,C8166,EC50,,MN,cytopathic effect,0.006 µM
Nc1nc(Nc2ccccc2)c2ncn(CCOCP(=O)(O)O)c2n1,,CEM,EC50,,IIIB,cytopathic effect / MTT,63.3 µg/mL
CC(=O)NC1=CS(=O)(=O)OC12[C@@H](COCc1ccccc1)O[C@@H](n1cc(C)c(=O)[nH]c1=O)[C@@H]2OC(C)=O,,MT-4,EC50,,IIIB,syncytia,>160 µM
O=C1O[C@H]2[C@@H]3OC(=O)c4cc(O)c(O)c(O)c4-c4c(cc(O)c(O)c4O)C(=O)OC[C@H]2O[C@@H](OC(=O)c2cc(O)c(O)c(O)c2)[C@@H]3OC(=O)c2cc(O)c(O)c3c2[C@@H]2C1=CC(=O)[C@](O)(O3)C2(O)O,,MAGI,EC50,,,p24,<2.5 µg/mL
Cc1cn([C@@H]2O[C@H](COCc3ccccc3)C3(OS(=O)(=O)C=C3N)[C@H]2O[Si](C)(C)C(C)(C)C)c(=O)[nH]c1=O,,MT-4,EC50,,IIIB,syncytia,>6 µM
CC(C)Nc1cccnc1N1CCN(C(=O)c2cc3cc(NS(C)(=O)=O)ccc3[nH]2)CC1,,MT-4,EC50,,LZ-05.95,cytopathic effect,0.04 µM
O=S1(c2ccccc2)=NC(=S)Nc2ccccc21,,CEM + CEM-SS,EC50,,KELL,cytopathic effect / XTT,5.07 µM
CCCc1cc(=O)oc2c3c(c4c(c12)OC(C)(C)C=C4)O[C@H](C)[C@@H](C)[C@H]3OC,,CEM + CEM-SS,EC50,,RF,XTT,>10 µM
CCCCNc1nc(N)nc2c1ncn2CCOCP(=O)(O)O,,CEM,EC50,,IIIB,cytopathic effect / MTT,2 µg/mL
Cc1cc(C)cc(S(=O)(=O)c2c(C(=O)NC(C)C(N)=O)[nH]c3ccc(Cl)cc23)c1,Y188L,MT-4,EC50,,,MTT,0.66 µM
Cc1cn([C@H]2C[C@H](N=[N+]=[N-])[C@@H](CO)O2)c(=O)[nH]c1=O,,CEM-GFP,EC50,,NL4-3,flow cytometry,0.000523 µM
CC1(C)OC[C@@]2(C[C@]34CC[C@H]2C[C@H]3[C@]2(C)CCC(=O)C(C)(C)[C@H]2CC4)O1,,MT-4,EC50,,NL4-3,luciferase / luminescence,24 µM
CC(C)=CCN1Cc2cccc3[nH]c(=S)n(c23)C[C@@H]1C,RT-L100I T139I,CEM + CEM-SS,EC50,,Costatolide-resistant (RT L100I T139I),XTT,>35 µM
O=C1Nc2ccc(Cl)cc2[C@@](C#CC2CC2)(C(F)(F)F)O1,,CEM-GFP,EC50,,NL4-3,p24 / ELISA,0.000007 µM
Cc1cn([C@@H]2O[C@H](CO[Si](C)(C)C(C)(C)C)C3(OS(=O)(=O)C=C3N)[C@H]2O[Si](C)(C)C(C)(C)C)c(=O)n(C)c1=O,,MT-4,EC50,,IIIB,syncytia,0.06 µM
Cc1cn([C@H]2C[C@H](N=[N+]=[N-])[C@@H](CO)O2)c(=O)[nH]c1=O,,U-937,EC50,,IIIB,RT activity,0.003 µM
Cc1cn([C@H]2C[C@H](N=[N+]=[N-])[C@@H](CO)O2)c(=O)[nH]c1=O,RT-A62V S68G T69D V75I F77L F116Y Q151M,MT-4,EC50,,BI-03.97 (HXB2(RT-A62V S68G T69D V75I F77L F116Y Q151M)),cytopathic effect,>5 µM
CCN1c2ncccc2N(C)C(=O)c2oc3cccnc3c21,,C8166,EC50,,IIIB,cytopathic effect,0.02 µM
Nc1ccn([C@H]2CC[C@@H](CO)O2)c(=O)n1,RT-K70R,MT-4,EC50,,DI-06.92 (HXB2 RT-K70R),cytopathic effect,1.4 µM
Cc1cc(C#N)cc(C)c1Oc1nc(Nc2ccc(C#N)cc2)nc(N)c1Br,,CEM-GFP,EC50,,NL4-3,flow cytometry,0.00083 µM
Nc1nc(NCCc2ccccc2)c2ncn(CCOCP(=O)(O)O)c2n1,,CEM,EC50,,IIIB,cytopathic effect / MTT,16 µg/mL
CO[C@@H]1[C@@H](O)[C@@H](O)[C@H](O)[C@H](O)[C@H]1n1cnc2c(N)ncnc21,,MT-4,EC50,,IIIB,cytopathic effect / MTT,>10 µg/mL
CC(C)c1nc(CN(C)C(=O)N[C@H](C(=O)N[C@@H](Cc2ccccc2)C[C@H](O)[C@H](Cc2ccccc2)NC(=O)OCc2cncs2)C(C)C)cs1,PR-L10R N37D M46I I62V L63P A71V G73S V77I V82T L90M I93L,PBMC,EC50,,Clinical isolate,p24,>1 µM
Nc1nc(NC2CC2)c2ncn([C@H]3C=C[C@@H](CO)C3)c2n1,,CEM-GFP,EC50,,NL4-3,p24 / ELISA,0.0805 µM
CO[C@H]1[C@@H](O)[C@H](n2ccc(N)nc2=O)[C@@H](O)[C@H](O)[C@@H]1O.O=C(O)/C=C/C(=O)O,,MT-4,EC50,,IIIB,cytopathic effect / MTT,>10 µg/mL

The first 5 rows once more:

smiles	mutations	cells	endpoint	setting	strain or isolate	method	value
Cc1cn([C@@H]2O[C@H](COCc3ccccc3)C3(OS(=O)(=O)C(Cc4ccccc4)=C3NCc3ccccc3)[C@H]2O[Si](C)(C)C(C)(C)C)c(=O)n(C)c1=O		CEM	EC50		IIIB	syncytia	51 µM
[N-]=[N+]=N[C@H]1C[C@H](n2cc(COCC(F)(F)F)c(=O)[nH]c2=O)O[C@@H]1CO		CEM	EC50			p24	1.5 µg/mL
CCN1c2cc(C)c(C)cc2N(C)S(=O)(=O)c2cccnc21		MT-4	EC50		IIIB	cytopathic effect	0.2 µM
CSC1N=S(=O)(c2ccccc2)c2ccccc2N1		MT-2	EC50		IIIB	cytopathic effect / XTT	6.2 µM
C[C@]1(CCP(=O)(O)O)CO[C@@H](n2cnc3c(N)ncnc32)C1		PBMC	EC50		LAI		22.2 µM

ECn is the concentration giving n% inhibition of infection, replication or growth. Neighbouring rows are from separate reports. a–b is a range or a potency band.